Pooled drug test results. Numbers come from NIAID ChemDB, via PubChem.

Shared fields: host cell toxicity; cell line: MT-4; endpoint: CC50

An empty or dashed field is not shown. Conditions beyond the fields shown may differ between rows. CCn is the concentration with n% toxicity to the cells.

SMILES	read by	value
CC1=C(C(=O)Nc2ccc(F)c(Cl)c2)C2=NN=C(N)C2C(=O)N1	MTT	18.4 µg/mL
CCCCCCCCCCCCOC1OC(COS(=O)(=O)O)C(OS(=O)(=O)O)C(OC2OC(COS(=O)(=O)O)C(OS(=O)(=O)O)C(OC3OC(COS(=O)(=O)O)C(OS(=O)(=O)O)C(OC4OC(COS(=O)(=O)O)C(OS(=O)(=O)O)C(OC5OC(COS(=O)(=O)O)C(OS(=O)(=O)O)C(OS(=O)(=O)O)C5OS(=O)(=O)O)C4OS(=O)(=O)O)C3OS(=O)(=O)O)C2OS(=O)(=O)O)C1OS(=O)(=O)O	-	>1000 µg/mL
CCc1nc([N+](=O)[O-])c(N2CCN(C(=O)c3cccs3)CC2)n1Cc1ccccc1	-	58.93 µg/mL
CC.CC(C)C[C@H](NC(=O)[C@@H](NC(=O)[C@H](Cc1c[nH]c2ccccc12)NC(=O)CCCCCCC(=O)Nc1ccn([C@H]2CC[C@@H](CO[Si](c3ccccc3)(c3ccccc3)C(C)(C)C)O2)c(=O)n1)C(C)C)[C@@H](O)CC(=O)NC(Cc1ccccc1)c1ccccc1	-	50 µM
CSCCC(NS(=O)(=O)c1ccc(Cl)cc1)c1nnc(SCc2ccc(Br)cc2)o1	-	12.3 µg/mL
O=C1CC(c2ccccc2)n2nc(-c3ccc4ccccc4c3)nc2N1	visual reading	>100 µg/mL
COc1cccc2c1nc(-c1ccccc1F)n2CC=C(C)C	-	14.3 µg/mL
CCc1nc([N+](=O)[O-])c(N2CCN(C(=O)CSCc3ccc(Cl)cc3)CC2)n1Cc1ccccc1	-	7.35 µg/mL
COc1ccc(C2CC(=O)Nc3nc(C4CCCCC4)nn32)cc1	visual reading	≥100 µg/mL
CSc1nc2ccccc2c(=O)n1/N=C1\C(=O)N(CN2CCOCC2)c2ccc(Br)cc21	MTT	9.5 µM
CC(C)(C)c1ccc(-c2ncccc2OCC(=O)Nc2ccc(S(N)(=O)=O)cc2)cc1	MTT / absorbance	270 µM
S=C(NCc1ccco1)Nc1cccc(Cl)c1	MTT	60 µM
Cc1ccc(-c2ncccc2OCC(=O)Nc2ccc(C(N)=O)cc2)cc1	MTT / absorbance	105 µM
CSc1nc2ccccc2c(=O)n1/N=C1\C(=O)N(CN2CCCCC2)c2ccccc21	MTT	9.1 µM
CC1=C(C(=O)Nc2ccccc2Cl)C2=NN=C(N)C2C(=O)N1	MTT	48.7 µg/mL
Nc1ccc(Cl)cc1S(=O)(=O)n1cccc1C(=O)OCCO	MTT	>200 µM
CCCCCCCCCCCCO[C@@H]1O[C@H](COS(=O)(=O)O)[C@@H](OS(=O)(=O)O)[C@H](O[C@@H]2O[C@H](COS(=O)(=O)O)[C@@H](OS(=O)(=O)O)[C@H](O[C@@H]3O[C@H](COS(=O)(=O)O)[C@@H](OS(=O)(=O)O)[C@H](O[C@@H]4O[C@H](COS(=O)(=O)O)[C@@H](OS(=O)(=O)O)[C@H](OS(=O)(=O)O)[C@H]4OS(=O)(=O)O)[C@H]3OS(=O)(=O)O)[C@H]2OS(=O)(=O)O)[C@H]1OS(=O)(=O)O	-	>1000 µg/mL
Cc1cn([C@H]2C[C@H](N=[N+]=[N-])[C@@H](CO)O2)c(=O)[nH]c1=O	-	11.5 µg/mL
CSc1nc2ccccc2c(=O)n1/N=C1\C(=O)N(CN(C)C)c2ccc(Cl)cc21	MTT	15.3 µM
CCCc1nc2n(n1)C(c1ccc(OC)cc1)CC(=O)N2	visual reading	>100 µg/mL
COc1ccc(-c2ncccc2OCC(=O)Nc2ccc(S(N)(=O)=O)cc2)cc1	MTT / absorbance	243 µM
CC(C)COC(=O)c1cccn1S(=O)(=O)c1cc(Cl)ccc1[N+](=O)[O-]	MTT	24 µM
S=C(Nc1cccc(Br)c1)NC1CCN(Cc2ccccc2)CC1	MTT	14.6 µM
C[C@H](NP(=O)(OC[C@H]1C=C[C@@H](n2cnc3c(N)ncnc32)C1)Oc1ccccc1)C(=O)OC(C)(C)C	MTS	85 µM
Cc1ccc(C(C)C)c2oc(=O)c(C(=O)/C=C/c3ccc(N(C)C)cc3)c(O)c12	-	>125 µg/mL
CCCCCCO[C@@H]1O[C@H](COS(=O)(=O)O)[C@@H](OS(=O)(=O)O)[C@H](O[C@@H]2O[C@H](COS(=O)(=O)O)[C@@H](OS(=O)(=O)O)[C@H](O[C@@H]3O[C@H](COS(=O)(=O)O)[C@@H](OS(=O)(=O)O)[C@H](O[C@@H]4O[C@H](COS(=O)(=O)O)[C@@H](OS(=O)(=O)O)[C@H](O[C@@H]5O[C@H](COS(=O)(=O)O)[C@@H](OS(=O)(=O)O)[C@H](OS(=O)(=O)O)[C@H]5OS(=O)(=O)O)[C@H]4OS(=O)(=O)O)[C@H]3OS(=O)(=O)O)[C@H]2OS(=O)(=O)O)[C@H]1OS(=O)(=O)O	-	>1000 µg/mL
COc1ccccc1Cn1c(-c2ccccc2F)nc2c(OC)cccc21	-	>5 µg/mL
CC(=O)c1ccc(NC(=O)COc2cccnc2-c2cccc3ccccc23)cc1	MTT / absorbance	8.23 µM
CCOC(=O)c1ccn(S(=O)(=O)c2cc(Cl)ccc2[N+](=O)[O-])c1	MTT	0.7 µM
COc1cccc2c1nc(-c1ccccc1F)n2Cc1cccc(C)c1	-	8.5 µg/mL
CC1=C(C(=O)Nc2ccc(F)c(F)c2)C2=NN=C(N)C2C(=O)N1	MTT	99.03 µg/mL
CCCCO[C@@H]1O[C@H](COS(=O)(=O)O)[C@@H](OS(=O)(=O)O)[C@H](O[C@@H]2O[C@H](COS(=O)(=O)O)[C@@H](OS(=O)(=O)O)[C@H](O[C@@H]3O[C@H](COS(=O)(=O)O)[C@@H](OS(=O)(=O)O)[C@H](O[C@@H]4O[C@H](COS(=O)(=O)O)[C@@H](OS(=O)(=O)O)[C@H](O[C@@H]5O[C@H](COS(=O)(=O)O)[C@@H](OS(=O)(=O)O)[C@H](OS(=O)(=O)O)[C@H]5OS(=O)(=O)O)[C@H]4OS(=O)(=O)O)[C@H]3OS(=O)(=O)O)[C@H]2OS(=O)(=O)O)[C@H]1OS(=O)(=O)O	-	>1000 µg/mL
COc1cccc2c1nc(-c1ccccc1F)n2Cc1ccccc1	-	25.9 µg/mL
CSc1nc2ccccc2c(=O)n1/N=C1\C(=O)N(CN2CCCCC2)c2ccc(Cl)cc21	MTT	10.4 µM
S=C(NCc1ccco1)Nc1ccc(Cl)c(Cl)c1	MTT	35.7 µM
Cc1ccc(S(=O)(=O)NC(Cc2ccccc2)c2nnc(SCc3ccccc3)o2)cc1	-	11.67 µg/mL
COc1cc([N+](=O)[O-])ccc1NC(=O)C1=C(C)NC(=O)C2C(N)=NN=C12	MTT	86.7 µg/mL
CC(C)C[C@H](NC(=O)[C@@H](NC(=O)[C@H](Cc1c[nH]c2ccccc12)NC(=O)CCCCC(=O)Nc1ccn([C@H]2CC[C@@H](CO)O2)c(=O)n1)C(C)C)[C@@H](O)CC(=O)NC(Cc1ccccc1)c1ccccc1	-	100 µM
CSc1nc2ccccc2c(=O)n1/N=C1\C(=O)N(CN(C)C)c2ccc(Br)cc21	MTT	16.3 µM
CC(=O)Nc1ccc(Cl)cc1S(=O)(=O)n1ccc(C(C)=O)c1	-	>200 µM
CSCCC(NS(=O)(=O)c1ccc(Cl)cc1)c1nnc(SCc2ccc(F)cc2)o1	-	13.65 µg/mL
COC(=O)C(C)(C)NP(=O)(OC[C@@H]1C=C[C@H](n2ccc3c(N)ncnc32)C1)Oc1ccccc1	MTS	490 µM
Cc1cc2oc(=O)c(C(=O)/C=C/c3ccccc3[N+](=O)[O-])c(O)c2cc1Cl	-	10.1 µg/mL
O=C1Nc2ccc(Cl)cc2[C@@](C#CC2CC2)(C(F)(F)F)O1	MTT	0.002 µM
O=S(=O)(O)c1cc(Cl)cc(Cc2cc(Cl)cc(S(=O)(=O)O)c2O)c1O	-	>100 µg/mL
[N-]=[N+]=N[C@@]1(CO)COC(n2ccc(N)nc2=O)C1	-	>100 µg/mL
CSc1nc2ccccc2c(=O)n1/N=C1\C(=O)N(CN(C)C)c2ccccc21	MTT	11.1 µM
Cc1cn([C@H]2C[C@H](N=[N+]=[N-])[C@@H](CO)O2)c(=O)[nH]c1=O	MTT	7.8 µg/mL
CCOC(=O)c1ccc2n1S(=O)(=O)c1cc(Cl)ccc1N2C(N)=O	-	70 µM
CCc1nc([N+](=O)[O-])c(N2CCN(C(=O)c3ccc(Cl)cc3)CC2)n1Cc1ccccc1	-	31.67 µg/mL
CCOC(=O)c1cccn1S(=O)(=O)c1cc(Cl)ccc1NC(=O)CSC	-	170 µM
CSCCC(NS(=O)(=O)c1ccc(C)cc1)c1nnc(SCc2ccc(Cl)cc2)o1	-	13 µg/mL
Nc1ncnc2c1ccn2[C@H]1C=C[C@@H](CO)C1	MTS	>500 µM
NNC(=O)c1cccn1S(=O)(=O)c1cc(Cl)ccc1[N+](=O)[O-]	MTT	>200 µM
CCOC(=O)CSCC(=O)N1CCN(c2c([N+](=O)[O-])nc(CC)n2Cc2ccccc2)CC1	-	10.67 µg/mL
O=S(=O)(O)OCCCCCCCCCCCCO[C@@H]1O[C@H](COS(=O)(=O)O)[C@@H](OS(=O)(=O)O)[C@H](O[C@@H]2O[C@H](COS(=O)(=O)O)[C@@H](OS(=O)(=O)O)[C@H](O[C@@H]3O[C@H](COS(=O)(=O)O)[C@@H](OS(=O)(=O)O)[C@H](O[C@@H]4O[C@H](COS(=O)(=O)O)[C@@H](OS(=O)(=O)O)[C@H](O[C@@H]5O[C@H](COS(=O)(=O)O)[C@@H](OS(=O)(=O)O)[C@H](OS(=O)(=O)O)[C@H]5OS(=O)(=O)O)[C@H]4OS(=O)(=O)O)[C@H]3OS(=O)(=O)O)[C@H]2OS(=O)(=O)O)[C@H]1OS(=O)(=O)O	-	>1000 µg/mL
COC(=O)[C@H](C)NP(=O)(OC[C@@H]1CC[C@H](n2cnc3c(N)ncnc32)C1)Oc1ccccc1	MTS	6.5 µM
CCCCCCCCCCO[C@@H]1O[C@H](COS(=O)(=O)O)[C@@H](OS(=O)(=O)O)[C@H](O[C@@H]2O[C@H](COS(=O)(=O)O)[C@@H](OS(=O)(=O)O)[C@H](O[C@@H]3O[C@H](COS(=O)(=O)O)[C@@H](OS(=O)(=O)O)[C@H](O[C@@H]4O[C@H](COS(=O)(=O)O)[C@@H](OS(=O)(=O)O)[C@H](O[C@@H]5O[C@H](COS(=O)(=O)O)[C@@H](OS(=O)(=O)O)[C@H](OS(=O)(=O)O)[C@H]5OS(=O)(=O)O)[C@H]4OS(=O)(=O)O)[C@H]3OS(=O)(=O)O)[C@H]2OS(=O)(=O)O)[C@H]1OS(=O)(=O)O	-	>1000 µg/mL
CCc1nc([N+](=O)[O-])c(N2CCN(C(=O)c3ccc(OC)cc3)CC2)n1Cc1ccccc1	-	71.53 µg/mL
Nc1ccc(Cl)cc1S(=O)(=O)n1cccc1C(=O)OCC1CC1	MTT	39 µM
CCOC(=O)c1cccn1S(=O)(=O)c1cc(Cl)ccc1NC(=O)CN1CCCC1	-	111 µM
CC1=C(C(=O)Nc2ccc([N+](=O)[O-])cc2)C2=NN=C(N)C2C(=O)N1	MTT	71.5 µg/mL
[N-]=[N+]=N[C@@]1(CO)CO[C@@H](n2cnc3c(N)ncnc32)C1	-	>100 µg/mL
CCCc1nc2n(n1)C(c1ccccc1)CC(=O)N2	visual reading	>100 µg/mL
CCNC(=O)c1cccn1S(=O)(=O)c1cc(Cl)ccc1[N+](=O)[O-]	MTT	16.6 µM
Nc1ncnc2c1ncn2[C@@H]1C[C@](N)(CO)CO1	-	>100 µg/mL

The last 7 rows once more:

SMILES | read by | value
Nc1ccc(Cl)cc1S(=O)(=O)n1cccc1C(=O)OCC1CC1 | MTT | 39 µM
CCOC(=O)c1cccn1S(=O)(=O)c1cc(Cl)ccc1NC(=O)CN1CCCC1 | - | 111 µM
CC1=C(C(=O)Nc2ccc([N+](=O)[O-])cc2)C2=NN=C(N)C2C(=O)N1 | MTT | 71.5 µg/mL
[N-]=[N+]=N[C@@]1(CO)CO[C@@H](n2cnc3c(N)ncnc32)C1 | - | >100 µg/mL
CCCc1nc2n(n1)C(c1ccccc1)CC(=O)N2 | visual reading | >100 µg/mL
CCNC(=O)c1cccn1S(=O)(=O)c1cc(Cl)ccc1[N+](=O)[O-] | MTT | 16.6 µM
Nc1ncnc2c1ncn2[C@@H]1C[C@](N)(CO)CO1 | - | >100 µg/mL